Anti-infective test results gathered from many reports (values: NIAID ChemDB through PubChem).

Shared fields: growth or infection tests; agent: Mycobacterium tuberculosis

Percent inhibition refers to the dose given; in toxicity tests it is the harm to the cells. ECn is the concentration giving n% inhibition of infection, replication or growth. An empty or dashed field is not shown. Neighbouring rows are from separate reports. MIC bound: limit read from a one-dose screen.

SMILES	strain or isolate	read by	measure	tested at	result
Cc1nn(C(=O)c2ccncc2)c(C)c1N=Nc1ccc(S(N)(=O)=O)cc1	H37Rv	BACTEC	MIC bound	-	>12.5 µg/mL
CCCCCCCCCCCNCCNN1CCCC1	-	-	MIC	-	50 µM
Fc1ccccc1CCNCCNCCc1ccccc1F	-	-	MIC	-	25 µM
CNC(=O)NC1ON=C(c2ccccc2)C1C(=O)NC	H37Rv	BACTEC	inhibition	12.5 µg/mL	0%
CC(NCCNCc1ccc(C(F)(F)F)cc1)c1c[nH]c2ccccc12	-	-	MIC	-	25 µM
CC(Cc1c[nH]c2ccccc12)NCCNC1CCCc2ccccc21	-	-	MIC	-	50 µM
O=C(/C=C/c1cc2ccccc2c2ccccc12)c1cccc(O)c1	H37Rv	-	EC50	-	<12.5 µg/mL
COc1ccc(CNCCNC[C@]2(C)CCC[C@]3(C)c4ccc(C(C)C)cc4CC[C@@H]23)cc1OC	-	-	MIC	-	50 µM
Cc1ccc2nc3cc(C)c(=O)cc-3sc2c1	H37Rv	BACTEC	inhibition	12.5 µg/mL	98%
CCN(CC)C(=O)c1ccc(N)cc1	H37Rv	-	MIC	-	>100 µg/mL
O=C1c2ccccc2OC(c2cccc(Br)c2)C1O	H37Rv	-	EC50	-	<12.5 µg/mL
O=c1nc2c(c(-c3ccc(F)cc3)[nH]1)COC/C2=C/c1ccc(F)cc1	H37Rv	BACTEC	MIC bound	-	>12.5 µg/mL
Nc1ccc(Cc2ccc(N)c(C(=O)O)c2)cc1C(=O)O	H37Rv	-	MIC	-	>100 µg/mL
COc1ccc(C2Oc3ccccc3C(=O)C2O)cc1	-	-	inhibition	12.5 µg/mL	48%
CC(=O)OC1C(=O)[C@H]2[C@@H](CC=C3CC(O)CC(O)[C@@]32C)[C@@H]2CC[C@H]([C@H](C)C3CC(C)C(C)(C)O3)[C@@]12C	H37Rv	BACTEC	MIC bound	-	>12.5 µg/mL
O=C(O)CCC(=O)/C=C/c1ccccc1	H37Rv	-	MIC	-	>100 µg/mL
COc1ccc(CNCCNCCCCc2ccccc2)cc1OC	-	-	MIC	-	12.5 µM
COc1ccc(OC)c(CCNCCNCC2(O)CCCCC2)c1	-	-	MIC	-	12.5 µM
C=C(O)Oc1cc(OC(C)=O)ccc1OC(C)=O	H37Rv	-	MIC	-	>100 µg/mL
Cc1cc(S(=O)(=O)Nc2nnc3c(Cl)cc(C(F)(F)F)cn23)c(S)cc1Cl	H37Rv	BACTEC	MIC bound	-	>12.5 µg/mL
COc1ccc(CCNCCNCCC(c2ccccc2)c2ccccc2)cc1	-	-	MIC	-	50 µM
Clc1ccc(CCNCCNCCc2ccccc2)c(Cl)c1	-	-	MIC	-	50 µM
CN(C)c1ccc(/C=C/c2ccc3ccccc3n2)cc1	H37Rv	-	MIC	-	>100 µg/mL
CO[C@H]1/C=C/O[C@@]2(C)Oc3c(C)c(O)c4c(=O)c(c5oc6cc(N7CCN(C(C)C)CC7)cc(=O)c6nc5c4c3=C2O)NC(=O)/C(C)=C\C=C\[C@H](C)[C@H](O)[C@@H](C)[C@@H](O)[C@@H](C)[C@H](OC(C)=O)[C@@H]1C	29 (rifampin-resistant)	-	MIC	-	0.05 µg/mL
COC(=O)c1cc(Br)cc(Br)c1N	H37Rv	-	MIC	-	100 µg/mL
COc1ccccc1CCNCCNCCc1ccccc1Cl	-	-	MIC	-	50 µM
COc1ccc(OC)c2c(NCCNCCO)cc(NCCNCCO)nc12.Cl.Cl.Cl	H37Rv	BACTEC	MIC bound	-	>12.5 µg/mL
CCOc1ccccc1C(=O)O	H37Rv	-	MIC	-	>100 µg/mL
COc1ccc(C2CC(=O)c3ccc(I)cc3O2)cc1	-	-	EC50	-	>12.5 µg/mL
Cc1cc(C(=O)O)c(C)n1-c1cccc(C(=O)O)c1	H37Rv	BACTEC	MIC bound	-	>6.25 µg/mL
CC(NCCNC[C@@H]1CC[C@H]2C[C@@H]1C2(C)C)c1cccc2ccccc12	-	-	MIC	-	50 µM
CC(NCCNCC(c1ccccc1)c1ccccc1)c1cccc2ccccc12	-	-	MIC	-	6.25 µM
O=C(O)COc1cccc(Cl)c1	H37Rv	-	MIC	-	>100 µg/mL
COc1ccc2nccc(/C=C3/C(OC(=O)NS(=O)(=O)c4ccc(C)cc4)C4CCN3CC4)c2c1	H37Rv	BACTEC	inhibition	12.5 µg/mL	-7%
COc1ccc(C2CC(=O)c3cc(C(=O)O)ccc3O2)cc1	H37Rv	-	inhibition	12.5 µg/mL	0%
Cc1cc(O)c(C(C)C)c(Cl)c1	H37Rv	-	MIC	-	50 µg/mL
CCOc1ccc(NC(=O)C(=O)CC(=O)c2c[n+](=O)c3cc(C)c(C)cc3n2[O-])cc1	H37Rv	BACTEC	inhibition	12.5 µg/mL	35%
O=C1NC2NC(=O)NC2N1	H37Rv	-	MIC	-	>100 µg/mL
COc1cc2c(c3oc4c(c(=O)c13)CCCC4)CCC(C)(C)O2	H37Rv	BACTEC	inhibition	12.5 µg/mL	-8%
COc1ccc(O)c(C(=O)/C=C/c2ccco2)c1	H37Rv	-	inhibition	12.5 µg/mL	0%
CCCCCCCCCCCCCCCCNc1ccc(CNCCNC2CCCCCCC2)cc1	-	-	MIC	-	50 µM
CCOC(=O)c1cc(=O)n(C)c2ccc(OC)cc12	H37Rv	-	MIC	-	>100 µg/mL
COc1ccc2c(c1)OC[C@@H]1c3cc(NS(=O)(=O)c4ccccc4)cc(OCc4ccccc4)c3O[C@H]21	H37Rv	BACTEC	inhibition	12.5 µg/mL	14%
Cc1cc(C)c(C2=C(O)c3ccccc3C(=O)C2=O)c(C)c1	H37Rv	-	MIC	-	>100 µg/mL
CO[C@H]1/C=C/O[C@@]2(C)Oc3c(C)c(O)c4c(O)c(c(/C=N/N5CCN(C/C=C/c6ccccc6)CC5)c(O)c4c3C2=O)NC(=O)/C(C)=C\C=C\[C@H](C)[C@H](O)[C@@H](C)[C@@H](O)[C@@H](C)[C@H](OC(C)=O)[C@@H]1C	2749 (rifampin-sensitive)	-	MIC	-	0.1 µg/mL
Cc1cc(C)c(-c2cc(O)c3ccccc3c2O)c(C)c1	H37Rv	-	MIC	-	>100 µg/mL
O=C(O)C1(O)C[C@@H](O)C(O)[C@H](O)C1	H37Rv	BACTEC	inhibition	12.5 µg/mL	8%
CCCNCCNC[C@]1(C)CCC[C@]2(C)c3ccc(C(C)C)cc3CC[C@@H]12	-	-	MIC	-	12.5 µM
Nc1ccc(Nc2ccc([As]=O)cc2)nc1	H37Rv	-	MIC	-	>100 µg/mL
O=c1c(O)c(-c2ccc(O)cc2O)oc2cc(O)cc(O)c12	H37Rv	BACTEC	MIC bound	-	>128 µg/mL
CCN(CC)c1cccc(CCNS(C)(=O)=O)c1	H37Rv	-	MIC	-	>100 µg/mL
NNC(=O)C(=O)N/N=C1\CCCC1C(=O)CCC(=O)Nc1ccc(Cl)cc1	H37Rv	BACTEC	inhibition	12.5 µg/mL	6%
O=C(O)c1ccc(O)c2ncccc12	H37Rv	-	MIC	-	100 µg/mL
Cc1cc(N2C(=O)CCSC2=S)ccc1Cl	H37Rv	BACTEC	inhibition	12.5 µg/mL	0%
CC(C)c1ccc2c(c1)CC[C@H]1[C@](C)(CNCCNCc3cccc4ccccc34)CCC[C@]21C	-	-	MIC	-	50 µM
Cc1ccc(NC(=O)c2c(Cl)c(Cl)c(Cl)c(Cl)c2C(=O)O)cc1Cl	H37Rv	BACTEC	MIC bound	-	>12.5 µg/mL
Nc1cccc(C(=O)Nc2ccc(NC(=O)CC(=O)c3ccccc3)cc2)c1	H37Rv	-	MIC	-	>100 µg/mL
CCNC(=S)S	H37Rv	BACTEC	inhibition	12.5 µg/mL	35%
O=C(/C=C/c1ccccc1)Oc1ccccc1	H37Rv	-	MIC	-	>100 µg/mL
CC12CC(=O)C3C(CCC4CC(OS(=O)(=O)[O-])CCC43C)C1CC1OC(=O)C=C12.[Na+]	H37Rv	BACTEC	MIC bound	-	>12.8 µg/mL
Cc1cc(NCCCCN2CCCCC2)cc(C)n1.Cl	H37Rv	-	MIC	-	>100 µg/mL
CCN(CC)C(=O)c1cc(=O)c(C)c2oc3c(C)c(O)c(N)c(C(=O)N(CC)CC)c3nc1-2	H37Rv	BACTEC	inhibition	12.5 µg/mL	8%
OCC(O)C(O)C(O)C(O)/C=N/O	H37Rv	-	MIC	-	25 µg/mL